A mixed list of measured activities; the numbers were collected in NIAID ChemDB.

Common to all: growth or infection tests; agent: Candida albicans; measure: MIC

An empty or dashed field is not shown.

structure | strain or isolate | read by | result
CNOC(=O)[C@@H](C)NC(=O)c1c(C)cc2c(c1O)-c1c(cc3c(c1O)C(=O)c1cc(OC)cc(O)c1C3=O)[C@H](O)[C@H]2OC1OC(C)C(NC)C(OC2OCC(O)C(O)C2O)C1O | A9540 |  | 6.3 µg/mL
CC(=O)OC(CCCC12OC(C(=O)O)C(O)(C(=O)O)C(C(=O)O)(O1)C(OC(=O)CCCCCC/C=C/c1ccccc1)C2O)C(C)C/C=C/c1ccccc1 | 427 |  | 1.5 µg/mL
COc1cc2c3c(ccnc3c1OC)N(Cc1ccccc1)C=C2 |  |  | >64 µg/mL
Cc1c(C(=O)/C=C/c2ccc(Cl)cc2)nnn1-c1ccnc2c(C(F)(F)F)cccc12 |  |  | 12.5 µg/mL
C=C(CN(C)C)C(=O)c1ccc(Cl)cc1 |  |  | 32 µg/mL
C/C=C/[C@@H]1OC(=O)C=C[C@@H]1O |  |  | 400 µg/mL
O=C1/C(=C/c2ccccc2)CSc2ccc(Cl)cc21 |  |  | 50 µg/mL
CCCCCCCCCCCCC(C)(O)C1CC(=O)NC(CO)C(=O)N[C@H](C)C(=O)NC(CC(=O)O)C(=O)NC(CC(N)=O)C(=O)NC(CC(N)=O)C(=O)NC(CO)C(=O)NC([C@@H](C)O)C(=O)O1 | ATCC10259 |  | 32 µg/mL
Cc1c(NC(=O)C(C)Sc2nnc(-c3ccco3)n2-c2ccccc2)c(=O)n(-c2ccccc2)n1C | ATCC 10231 |  | 16 µg/mL
C=C(CN1CCOCC1)C(=O)c1ccc(Cl)cc1 |  |  | 32 µg/mL
Cc1ccc(OC(C)c2n[nH]c(=S)n2C2CCCCC2)cc1 | Clinical isolates |  | >16 µg/mL
N#Cc1c(-c2ccc([N+](=O)[O-])cc2)cc(-c2cc3cc(F)ccc3oc2=O)nc1NS(=O)(=O)c1ccccc1 | MTCC 227 | turbidity | 1000 µg/mL
CNC1C(C)OC(O[C@H]2c3cc(C)c(C(=O)N[C@H](C)C(=O)N[C@H](C)C(=O)O)c(O)c3-c3c(cc4c(c3O)C(=O)c3cc(OC)cc(O)c3C4=O)[C@@H]2O)C(O)C1OC1OCC(O)C(O)C1O | A9540 |  | >100 µg/mL
CC(=O)O/N=C(\c1ccccc1)c1cc2ccccc2o1 |  |  | 4 µg/mL
Cc1c(C(=O)/C=C/c2ccc(F)cc2)nnn1-c1ccnc2c(C(F)(F)F)cccc12 |  |  | 25 µg/mL
CCn1c(SCC(=O)c2ccc(Cl)cc2)nc2c(sc(=S)n2C)c1=O | ATCC 90018 |  | 256 µg/mL
CCOC(=O)[C@@H](C)NC(=O)c1c(C)cc2c(c1O)-c1c(cc3c(c1O)C(=O)c1cc(OC)cc(O)c1C3=O)[C@H](O)[C@H]2O[C@@H]1O[C@H](C)[C@H](NC)[C@H](O[C@@H]2OC[C@@H](O)[C@H](O)[C@H]2O)[C@H]1O | A9540 |  | >100 µg/mL
Cc1c(NC(=O)C(C)Sc2nnc(-c3ccco3)n2-c2ccc(Cl)cc2)c(=O)n(-c2ccccc2)n1C | ATCC 10231 |  | 16 µg/mL
Cc1ccc(/C(=N\OCc2ccccc2)c2cc3ccccc3o2)cc1 |  |  | 16 µg/mL
Cc1c(NC(=O)CSc2nnc(-c3ccco3)n2-c2ccc(F)cc2)c(=O)n(-c2ccccc2)n1C | ATCC 10231 |  | 16 µg/mL
CCn1c(SCC(=O)c2ccccc2)nc2c(sc(=S)n2C)c1=O | ATCC 90018 |  | 256 µg/mL
CCOC(=O)c1csc(NC(=O)CSc2nnc(C(C)Oc3ccc(C)cc3)n2C2CCCCC2)n1 | Clinical isolates |  | >16 µg/mL
CCO/N=C(\c1ccc(Cl)cc1)c1cc2ccccc2o1 |  |  | 1 µg/mL
Cn1c(SCC(=O)c2ccc(Cl)cc2)nc2c(sc(=S)n2C)c1=O | ATCC 90018 |  | 256 µg/mL
O=C(c1ccccc1)N1CCC(n2cc(-c3noc(=O)[nH]3)nn2)CC1 | NCIM3471 | agar | 40 µg/mL
Cc1c(NC(=O)CSc2nnc(-c3ccco3)n2-c2ccc(Cl)cc2)c(=O)n(-c2ccccc2)n1C | ATCC 10231 |  | 16 µg/mL
CCOC(=O)Cc1csc(NC(=O)CSc2nnc(C(C)Oc3ccc(C)cc3)n2-c2ccccc2)n1 | Clinical isolates |  | >16 µg/mL
Cc1c(O)cccc1C(=O)N[C@@H](CSc1ccccc1)[C@H](O)CN1C[C@H]2CCCC[C@H]2C[C@H]1C(=O)NC(C)(C)C | I108 1 |  | >64 µg/mL
Cc1c(C(=O)N/N=C/c2ccc(F)cc2)nnn1-c1ccnc2c(C(F)(F)F)cccc12 |  |  | 25 µg/mL
CCn1cnc2c(sc(=S)n2C)c1=O | ATCC 90018 |  | 64 µg/mL
Cc1ccsc1/C=C/C(=O)c1nnn(-c2ccnc3c(C(F)(F)F)cccc23)c1C |  |  | 6 µg/mL
Cc1ccc(/C(=N\OC(=O)c2ccccc2)c2cc3ccccc3o2)cc1 |  |  | 4 µg/mL
Cc1ccc(-n2c(SC(C)C(=O)Nc3c(C)n(C)n(-c4ccccc4)c3=O)nnc2-c2ccco2)cc1 | ATCC 10231 |  | 32 µg/mL
CNC1C(C)OC(O[C@H]2c3cc(C)c(C(=O)N[C@H](C)C(N)=O)c(O)c3-c3c(cc4c(c3O)C(=O)c3cc(OC)cc(O)c3C4=O)[C@@H]2O)C(O)C1OC1OCC(O)C(O)C1O | A9540 |  | 12.5 µg/mL
CCOC(=O)Cc1csc(NC(=O)CSc2nnc(C(C)Oc3ccc(C)cc3)n2C2CCCCC2)n1 | Clinical isolates |  | >16 µg/mL
CCCCCCCCCCCCC(OC)C(=O)O | ATCC 14053 |  | 110 µM
Cc1ccc(/C(=N\O)c2cc3ccccc3o2)cc1 |  |  | 2 µg/mL
Cc1c(NC(=O)CSc2nnc(-c3ccco3)n2-c2ccccc2)c(=O)n(-c2ccccc2)n1C | ATCC 10231 |  | 16 µg/mL
C=C(CN(C)C)C(=O)c1ccc(OC)cc1 |  |  | 32 µg/mL
N#Cc1c(-c2ccccc2)cc(-c2cc3cc(F)ccc3oc2=O)nc1NS(=O)(=O)c1ccccc1 | MTCC 227 | turbidity | 1000 µg/mL
OC(Cn1cncn1)(Cn1cncn1)c1ccc(F)cc1F | ATCC 90028 |  | 3.1 µM
CO/N=C(\c1ccc(OC)cc1)c1cc2ccccc2o1 |  |  | 2 µg/mL
COc1ccc(/C=C2\CSc3ccccc3C2=O)cc1OC |  |  | 100 µg/mL
C=C(CN(C)C)C(=O)c1ccccc1 |  |  | 128 µg/mL
O=C(/C=C/c1ccccc1Cl)c1ccc(C(=O)/C=C/c2ccccc2Cl)cc1 | ATCC 10231 | agar diffusion / agar | 200 µg/mL
c1ccc(CO/N=C(\c2ccccc2)c2cc3ccccc3o2)cc1 |  |  | 16 µg/mL
COc1ccc(/C=C2\CSc3ccc(Cl)cc3C2=O)cc1OC |  |  | 50 µg/mL
CNC1C(C)OC(O[C@H]2c3cc(C)c(C(=O)N[C@H](C)C(=O)NCC(=O)O)c(O)c3-c3c(cc4c(c3O)C(=O)c3cc(OC)cc(O)c3C4=O)[C@@H]2O)C(O)C1OC1OCC(O)C(O)C1O | A9540 |  | >50 µg/mL
N#Cc1c(-c2ccc(F)cc2)cc(-c2cc3cc(F)ccc3oc2=O)nc1NS(=O)(=O)c1ccccc1 | MTCC 227 | turbidity | 500 µg/mL
Cn1c(SCC(=O)c2ccccc2)nc2c(sc(=S)n2C)c1=O | ATCC 90018 |  | 256 µg/mL

3 of the rows above, restated:

structure,strain or isolate,read by,result
CCOC(=O)c1csc(NC(=O)CSc2nnc(C(C)Oc3ccc(C)cc3)n2C2CCCCC2)n1,Clinical isolates,,>16 µg/mL
O=C1/C(=C/c2ccccc2)CSc2ccc(Cl)cc21,,,50 µg/mL
CNC1C(C)OC(O[C@H]2c3cc(C)c(C(=O)N[C@H](C)C(=O)NCC(=O)O)c(O)c3-c3c(cc4c(c3O)C(=O)c3cc(OC)cc(O)c3C4=O)[C@@H]2O)C(O)C1OC1OCC(O)C(O)C1O,A9540,,>50 µg/mL

Conditions beyond the fields shown may differ between rows.